Data: paper PMC6016246
The exact form of at least one protein or probe is not confirmed. At least one verdict rests on a figure or table, not on a statement of the authors.

Molecular target: Rv0078 (UniProt O53623)
Test: EMSA
Conditions: room temperature 30 min, buffer not stated, recombinant protein, protein details: C-terminal His6, label: 5'-IRDye700 on S21, letters put together from the description

Sequence: GTACATTTACAAGCAGACTGCCGGTAACTTACCCCAGACCAGGGCAC / GTGCCCTGGTCTGG / GGTAAGTTACCGGCAGTCTGCTTGTAAATGTAC [+19/-14 (WT)]
- binding result: binds
